The values that follow come from patent publication US20100055761A1 (GENERAL HOSPITAL, published 2010).

Where “and” joins values, the source holds several entries; their conditions need not be identical. Equal values may be shown once.

Test [1] has as its target CD5, human, P06127 25-495. As to the kind of experiment: cell-based or functional assay.
The target in test [2] is T1, CD5 (human, UniProt P06127 25-495).
T1 sequence: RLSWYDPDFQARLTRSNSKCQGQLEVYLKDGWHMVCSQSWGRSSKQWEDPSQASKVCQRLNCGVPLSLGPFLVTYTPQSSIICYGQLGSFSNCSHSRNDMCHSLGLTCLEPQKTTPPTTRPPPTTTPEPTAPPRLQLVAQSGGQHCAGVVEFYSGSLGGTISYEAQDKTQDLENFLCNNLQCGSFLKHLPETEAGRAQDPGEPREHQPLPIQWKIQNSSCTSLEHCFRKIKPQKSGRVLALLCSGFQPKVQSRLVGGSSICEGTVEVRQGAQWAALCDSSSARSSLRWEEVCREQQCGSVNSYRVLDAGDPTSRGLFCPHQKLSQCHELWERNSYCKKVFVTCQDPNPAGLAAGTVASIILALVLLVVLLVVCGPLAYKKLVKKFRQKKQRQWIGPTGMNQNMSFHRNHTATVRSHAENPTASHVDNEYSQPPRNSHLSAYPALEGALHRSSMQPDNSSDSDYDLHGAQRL
As to the kind of experiment: cell-based or functional assay.

For the molecule “anti-CD5-VCE fusion protein bearing a granzyme B cleavage site”, the EC50, cytotoxicity to CD5^+Raji cells in the presence of GrB-anti-CD19 in test [1] stood at 1.3 nM.

B1: SortaseA conjugated anti-CD5-aerolysinGrB (scFv)
chain: ANIQLVQSGPELKKPGETVKISCKASGYTFTNYGMNWVKQAPGKGLRWMGWINTHTGEPTYADDFKGRFAFSLETSASTAYLQINNLKNEDTATYFCTRRGYDWYFDVWGAGTTVTVFSGGGGSGGGGSGGGSSDIKMTQSPSSMYASLGERVTITCKASQDINSYLSWFHHKPGKSPKTLIYRANRLVDGVPSRFSGSGSGQDYSLTISSLDYEDMGIYYCQQYDESPWTFGGGTKLEMRLERPHGGGSLPETGKGGSNSAASGEIPTLSALDIPDGDEVDVQWRLVHDSANFIKPTSYLAHYLGYAWVGGNHSQYVGEDMDVTRDGDGWVIRGNNDGGCDGYRCGDKTSIKVSNFAYNLDPDSFKHGDVTQSDRQLVKTVVGWAINDSDTPQSGYDVTLRYDTATNWSKTNTYGLSEKVTTKNKFKWPLVGETELSIEIAANQSWASQNGGSTTTSLSQSVRPTVPAHSKIPVKIELYKADISYPYEFKADVSYDLTLSGFLRWGGNAWYTHPDNRPNWNHTFVIGPYKDKASSIRYQWDKRYIPGEVKWWDWNWTIQQNGLPTMQNNLARVLRPVRAGITGDFSAESQFAGNIEIGAPVPVAAESKGIEPDSGVEGAGQGLRLEIPLDAQELSGLGFNNVSLSVTPAANQVEHHHHHH
Turning to B1, in test [2], the “EC50, cytotoxicity (MTS assay) to CD5^+Raji cells with 2 nM GrB-anti-CD19” value was ~0.3 nM and ~0.4 nM; the “EC50, cytotoxicity (MTS assay) to CD19^+Jurkat cells with 2 nM GrB-anti-CD19” value was approximately 6.5 nM; the “estimated EC50, cytotoxicity to CD5^+JVM3 cells with 2 nM GrB-anti-CD19” value was 2.1 nM; the “estimated EC50, cytotoxicity to Jeko-1 cells with 2 nM GrB-anti-CD19” value is 22.4 nM.
